# PSTVd loop 6 mutant pool in Nicotiana benthamiana

PSTVd intermediate strain, loop 6: wild type UGACCGCGAG, pool pattern UNNNCGNNNG; upper and lower strand joined, each 5' to 3', the first 5 letters being the upper strand, closing pairs included.

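A pool of all variants was put on leaves of three Nicotiana benthamiana plants. Samples came from the inoculated region at 5 days, the leaf margin at 10 and upper systemic leaves at 12.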

Values are reads per thousand in the sample; higher means more abundant, 0 means not found.
Each value is the mean of three plants.
"Pool" is the share in the plasmid pool used as inoculum, on the same scale.
The inoculated region was read from the minus strand, the other sites from the plus strand.
IR is the inoculated region, LM the leaf margin, Sys the systemic leaves.
For reference, wild type rose from 20.7 per thousand in the pool to 195, 198, 203 (inoculated region), 629, 591, 734 (leaf margin) and 942, 870, 868 (systemic leaves).
With 36,220-57,551 reads a sample, very low values are single reads.
Sequences that differ at fixed positions probably stem from PCR or sequencing errors, and defective variants can be carried along by functional ones.

sequence	pool	IR	LM	Sys
GGACCGAAAG	0.0131	0.553	0.0484	0.0137
UAACCGAUGG	0.131	0.102	0.00773	0
UAACCGGUUG	0.261	0.0652	0	0
UAAGCGUCAG	0.301	0.657	0.118	0.0538
UAAGCGUGUG	0.327	0.124	0	0
UAAUCGUCCG	0.366	0.0827	0	0
UAGACGCAAG	0.0915	0.120	0	0
UAGCCGAGAG	0.288	0.606	0.615	0
UAGGCGCCUG	0.248	0.0715	0	0
UAUCCGGAAG	0.105	0.0596	0	0
UAUUCGAAUG	0.405	0.0831	0	0
UAUUCGUGAG	0.288	0.127	0.00920	0
UCAACGCCCG	0.222	0.0529	0.0155	0
UCAACGCUUG	0.235	0.0944	0	0
UCAACGUGCG	0.248	0.673	0.0790	0
UCACCGCAGG	0.157	0.0773	0.0247	0
UCCCCGAGUG	0.353	0.0712	0.0260	0
UCCUCGUAGG	0.196	0.108	0	0
UCCUCGUUCG	0.301	0.0536	0.00920	0
UCGCCGACAG	0.209	0.100	0.0155	0
UCGCCGCGCG	0.170	0.541	0.109	0
UCGCCGUAAG	0.0915	0.0882	0.00773	0
UCGCCGUGCG	0.157	0.0658	0	0
UCGGCGAUAG	0.353	0.0777	0.0541	0
UCGUCGGAGG	0.157	0.0829	0.00773	0
UCGUCGUAUG	0.379	0.0777	0.0920	0.00599
UCUACGAUAG	0.222	0.0954	0.0556	0
UCUCCGGGCG	0.170	0.0824	0.00920	0
UCUCCGUUCG	0.340	0.102	0.0368	0
UCUGCGUAAG	0.118	0.0473	0	0
UCUUCGUACG	0.209	0.0956	0.0155	0
UCUUCGUGAG	0.314	0.121	0.0169	0
UCUUCGUUAG	0.353	0.155	0	0
UCUUCUGCAG	0.0131	0	0	0
UGACCGAUCG	0.327	0.185	0.393	0.0872
UGAGCGACUG	0.353	0.136	0.00773	0
UGCACGAAGG	0.144	0.0594	0.00773	0
UGCACGAAUG	0.366	0.107	0.00920	0
UGCACGUACG	0.196	0.124	0	0
UGCUCGGCCG	0.222	0.0896	0	0
UGGACGAGCG	0.131	0.0714	0	0
UGGACGCGUG	0.131	0.608	0.0268	0
UGGACGGCGG	0.222	0.0891	0.00773	0
UGGCCGAUCG	0.261	0.108	0.0184	0
UGGCCGUCUG	0.340	0.168	0.00773	0.00684
UGGUCGCCCG	0.301	0.101	0	0
UGGUCGUCAG	0.314	0.101	0	0
UGUACGCUUG	0.314	0.0779	0	0
UGUACGUCAG	0.366	0.0890	0	0
UGUACGUUCG	0.301	0.0653	0.0169	0
UGUCCGACCG	0.196	0.107	0	0
UGUUCGCUAG	0.235	0.0838	0	0
UUAACGGGAG	0.209	3.75	1.14	0.414
UUAACGUACG	0.170	0.660	0.0935	0.0331
UUAACGUUUG	0.379	0.120	0	0
UUAUCGAAUG	0.418	0.0714	0	0.00684
UUCACGAAUG	0.431	0.108	0.00920	0
UUCGCGGUGG	0.366	0.0833	0.0252	0
UUGCCGGACG	0.131	0.0655	0	0
UUGGCGUAUG	0.431	0.106	0.120	0
UUGGCGUUCG	0.445	0.114	0	0
UUGUCGAGUG	0.340	0.138	0.00773	0
UUGUCGUAGG	0.301	0.0656	0.00920	0
UUUCCGGGGG	0.131	0.107	0.0169	0

Reference: Wu et al. 2024, doi:10.1371/journal.ppat.1012142.